# Data taken from the supplement of paper PMC9262897, “Low-cost anti-mycobacterial drug discovery using engineered E. coli” (Nature Communications, 2022).
# ± gives the standard deviation of the averaged measurements. The lowest values were mostly taken out for another list; the other results follow.
# Test system: E. coli TESEC Mtb Asd
# Assay: growth (OD600 after 10 h); higher = more growth (less inhibition)
# Conditions: arabinose induction (level): High; compound 0.1 mM; raw OD600 reference: median of DMSO wells 0.331, cell-free background 0.041
# Protocol: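 TESEC E. coli strains in which the native enzyme is deleted and replaced by arabinose-inducible Mtb Asd, DapB, CysH or TrpD, each grown in its selective medium. Strains were screened against the Prestwick library at 0.1 mM and 1% DMSO in 384-well format at low and high arabinose induction. Growth is read as OD600 after 10 h in triplicate.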
row,Compound,growth
1,COc1cc(Br)c(C[N+]2(CCOCCC3CCC4CC3C4(C)C)CCOCC2)cc1OC (configuration not stated) [Pinaverium bromide],0.0512 ± 0.0011

# Same assay, conditions: arabinose induction (level): Low; compound 0.1 mM; raw OD600 reference: median of DMSO wells 0.417, cell-free background 0.041
row,Compound,growth
1,COc1cc(Br)c(C[N+]2(CCOCCC3CCC4CC3C4(C)C)CCOCC2)cc1OC (configuration not stated) [Pinaverium bromide],0.0523 ± 0.0023
